Measured values as given in publication PMC6269977, “Chemistry and Antiviral Activity of Arrabidaea pulchra (Bignoniaceae)” (Molecules, 2013).

System: Dengue virus 2 (DENV-2)
Format: cell-based
Conditions: selective index, CC50 over EC50; against LLCMK2 cells

SMILES | SI (DENV-2)
C[C@@H]1O[C@@H](O[C@@H]2[C@@H](O)[C@H](OCCc3ccc(O)c(O)c3)O[C@H](CO)[C@H]2OC(=O)/C=C/c2ccc(O)c(O)c2)[C@H](O)[C@H](O)[C@H]1O [AP 1, verbascoside] | 3.8
C[C@H]1[C@H](C)CC[C@]2(C(=O)O)CC[C@]3(C)C(=CC[C@@H]4[C@@]5(C)CC[C@H](O)C(C)(C)[C@@H]5CC[C@]43C)[C@H]12 [AP 3, ursolic acid] | 3.1
